The target of this assay is Influenza A virus M2 proton channel (A/TW/4845/1999 H1N1). As to the kind of experiment: M2 proton channel binding, NMR based, influenza A virus H1N1 strain (AID 1549). The conditions noted are these: NMR binding screen, M2 protein.

Active and inactive are the calls of the source. The rule behind the calls is not given here.

For `CP(N)(=O)Oc1ccc(Cl)cc1` (configuration not stated), the Kd was inactive: > 4 mM. The result for `OC1CN2CCC1CC2` (configuration not stated) reads inactive: > 4 mM.

The record behind these values is PubChem BioAssay AID1549 (Sanford-Burnham Center for Chemical Genomics, 2009).
